# Source: US6844358B2, “Phenyl oxo-acetic acids useful in the treatment of insulin resistance and hyperglycemia” (Wyeth, priority 1998, dated 2005)
# What was measured:
# [1] = system: rat hepatic microsomal PTPases; test: Inhibition of tri-phosphorylated insulin receptor dodecaphosphopeptide dephosphorylation by rat hepatic PTPases; settings: 50 μM compound, rat hepatic microsomal PTPase
# [2] = system: Human recombinant PTP1B (hPTP1B); test: Inhibition of tri-phosphorylated insulin receptor dodecaphosphopeptide dephosphorylation by hPTP1B; assay type: biochemical; settings: reference standards; enzyme form (rPTP1B/hPTP1B) not given
compound,measurement,setting,value
O=[As]c1ccccc1 (centres unmarked),% Change from Control at 50 μM,[1],−57%
same,% change from control at 10 μM,[2],39.7%
